Several values for one entry are separate records, joined by “and”; a condition that tells them apart may be missing. Equal entries are not always repeated. Where two headings read alike, the source gives them in different places.
Key:
[1] = system: wild type Ebola virus, Mayinga strain
MARV = MARV antiviral activity (Tables 1-3); assay type: cell-based, Marburg virus; conditions: read-out: MARV IC50

Row | SMILES | IC50 [1] | IC50 (MARV) | IC50 (MARV; listed as B3-34^SS)
1 | COc1ccc2c(c1)CCN(C)[C@@H]2Cc1ccc(OC)c(Oc2ccc(C[C@@H]3c4cc(OC)c(OC)cc4CCN3C)cc2)c1 | 200 nM | 173 nM | –
2 | COc1ccc2c(c1)CCN(C)[C@@H]2Cc1ccc(Oc2cc(C[C@@H]3c4ccc(OC)cc4CCN3C)ccc2OC)cc1 | 1220 nM | 562 nM | –
3 | COc1ccc2c(c1)CCN(C)[C@@H]2Cc1cccc(Oc2cc(C[C@@H]3c4cc(OC)c(OC)cc4CCN3C)ccc2OC)c1 | 1090 nM | 282 nM | –
4 | COc1ccc2c(c1)CCN(C)[C@@H]2Cc1ccc(Oc2cccc(C[C@@H]3c4cc5c(cc4CCN3C)OCO5)c2)cc1 | 887 nM and 992 nM | 530 nM | 888 nM
5 | COc1ccc2c(c1)CCN(C)[C@@H]2Cc1ccc(Oc2ccc(C[C@@H]3c4cc(OC)c(OC)cc4CCN3C)cc2OC)cc1 | 125 nM | 83 nM | –
